US5929226A, “Antisense oligonucleotide alkylphosphonothioates and arylphospohonothioates” (dated 1999)

Tested on: HIV-1
Assay: Anti-HIV activity in tissue culture: syncytium formation and cytopathic effect in HIV-1 infected H9 lymphocytes
Details: three days

Sequence: ACACCCAATTCTGAAAATGG
- % Reduct. in CPE (0.32 μg/ml): 2%
- Avg. No. of Syncytia (0.32 μg/ml): 150
- % Reduct. in CPE (1.0 μg/ml): 0%
- Avg. No. of Syncytia (1.0 μg/ml): 156
- % Reduct. in CPE (3.2 μg/ml): 65%
- Avg. No. of Syncytia (3.2 μg/ml): 53
- % Reduct. in CPE (10 μg/ml): 100%
- Avg. No. of Syncytia (10 μg/ml): 0
- % Reduct. in CPE (32 μg/ml): 100%
- Avg. No. of Syncytia (32 μg/ml): 0
- % Reduct. in CPE (100 μg/ml): 100%
- Avg. No. of Syncytia (100 μg/ml): 0
- ED50: 2.45 µg/mL
